{"sequences": {"note": "Sequences of proteins named here, by UniProt entry; tags and fusion partners are left off. Residues count along the entry.", "UniProt P27958, 1027-1657 limits assumed": "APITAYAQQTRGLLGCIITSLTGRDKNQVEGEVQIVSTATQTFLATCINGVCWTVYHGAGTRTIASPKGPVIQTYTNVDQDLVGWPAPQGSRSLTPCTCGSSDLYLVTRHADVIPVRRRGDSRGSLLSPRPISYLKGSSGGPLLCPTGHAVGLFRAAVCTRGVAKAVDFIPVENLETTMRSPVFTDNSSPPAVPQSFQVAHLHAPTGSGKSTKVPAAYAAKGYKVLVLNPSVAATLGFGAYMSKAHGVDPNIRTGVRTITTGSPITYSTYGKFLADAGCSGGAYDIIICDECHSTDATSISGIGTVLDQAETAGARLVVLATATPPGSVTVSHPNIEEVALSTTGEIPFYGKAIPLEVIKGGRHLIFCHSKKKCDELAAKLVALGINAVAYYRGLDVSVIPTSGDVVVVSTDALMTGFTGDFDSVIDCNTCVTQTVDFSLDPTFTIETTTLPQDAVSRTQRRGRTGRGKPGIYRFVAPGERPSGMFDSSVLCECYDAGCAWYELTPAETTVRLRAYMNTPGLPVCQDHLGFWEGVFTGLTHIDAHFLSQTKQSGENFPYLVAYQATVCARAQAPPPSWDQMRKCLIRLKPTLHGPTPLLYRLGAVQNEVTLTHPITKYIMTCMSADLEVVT", "UniProt P27958, 1658-1711 partner limits assumed": "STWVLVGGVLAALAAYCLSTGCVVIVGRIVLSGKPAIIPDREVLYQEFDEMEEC"}, "source": "patent US20060142204A1", "about": "“Pyrrolidine derivatives for use in treating heaptitis c virus infection” (GENOSCIENCE, priority 2002, published 2006)", "target": "full-length NS3/NS4A complex (Hepatitis C virus genotype 1a, UniProt P27958)", "conditions": "read-out: NS3 IC50; enzyme 50 nM, substrate 100 nM, 37° C., 40 minutes"}
{"smiles": "CC[C@H](NC(=O)[C@@H]1C[C@@H](OC(C)(C)C)CN1C(=O)[C@@H](NC(=O)[C@@H]1C[C@@H](OC(C)(C)C)CN1C(=O)[C@@H](NC(C)=O)C(C)C)C(C)C)C(=O)O", "values": [{"measurement": "IC50", "value": 500, "unit": "nM"}]}
